Anti-infective test results gathered from many reports (values: NIAID ChemDB through PubChem).

Shared fields: tests in culture; organism: Human cytomegalovirus; endpoint: EC50

ECn: concentration that inhibits the pathogen or its effect by n%. Two numbers with a dash give a range or band. Rows are shuffled and stem from different studies. Blank or dashed fields: not listed here.

structure,cell line,strain or isolate,read by,value
Nc1nc2c(ncn2C[C@H]2CC[C@@H](P(=O)(O)O)O2)c(=O)[nH]1,WI-38,-,plaque count,50 µg/mL
CCCCCCCCC#Cc1c[nH]c(=O)[nH]c1=O,HEL,DAVIS,cytopathic effect,>400 µM
Nc1nc2c(ncn2C[C@]2(CO)C[C@H]2CO)c(=O)[nH]1,-,-,plaque count,10–100 µM
Nc1nc2c(ncn2C[C@H]2CC[C@H](P(=O)(O)O)O2)c(=O)[nH]1,WI-38,-,plaque count,>50 µg/mL
N#CC1C(c2ccc(Cl)cc2)Nc2ccccc2S1(=O)=O,HEL,LY9990 (ganciclovir-resistant),cytopathic effect,2.7 µg/mL
CCCCCCC#Cc1c[nH]c(=O)[nH]c1=O,HEL,AD169,cytopathic effect,>400 µM
Nc1nc(=O)n([C@@H]2O[C@@H](CO)[C@H](O)[C@H]2F)cc1I,FLOW 2002,WF1,plaque count,>100 µg/mL
C#Cc1cn([C@H]2C[C@H](O)[C@@H](CO)O2)c(=O)[nH]c1=O,MRC-5,-,plaque count,0.07 µM
Nc1ccn([C@@H]2CC[C@H](CO)O2)c(=O)n1,FLOW 2002,WF1,plaque count,10 µg/mL
CCOP(=O)(O)CCC(CO)OCn1cnc2c(=O)[nH]c(N)nc21,MRC-5,LA ganciclovir-susceptible,plaque count,25 µg/mL
CO[C@H](CO)[C@@H](O)CCn1cnc2c(N)ncnc21,HEL,DAVIS,cytopathic effect,>400 µg/mL
Nc1nc2c(ncn2COC(CO)CO)c(=O)[nH]1,MRC-5,AD169,-,1.6 µM
CCCCCCCCCCC#Cc1c[nH]c(=O)[nH]c1=O,HEL,AD169,cytopathic effect,>80 µM
C[C@@H](NC(=O)C1(Cc2ccccc2)CCN1C(=O)OCc1ccccc1)C(N)=O,HEL,AD169,cytopathic effect,>400 µM
CCCCCCCCc1cc2cnc(=O)[nH]c2o1,HEL,AD169,cytopathic effect,>400 µM
O=C(Nc1ccc(NC(=S)Nc2cc(C(F)(F)F)cc(C(F)(F)F)c2)cc1)c1ccco1,HFF,-,virus yield,0.0015 µg/mL
Nc1nc2c(ncn2COCCCP(=O)(O)O)c(=O)[nH]1,MRC-5,AD169,plaque count,54 µM
C[C@@H](NC(=O)C1(Cc2ccccc2)CCN1C(=O)OCc1ccccc1)C(=O)OC(C)(C)C,HEL,DAVIS,cytopathic effect,3.2 µM
CO[C@H](CO)[C@@H](O)CCn1ccc(N)nc1=O,HEL,DAVIS,cytopathic effect,>400 µg/mL
Nc1nc2c(ncn2COC(CO)CO)c(=O)[nH]1,HEL,U 9070,plaque count,10.8 µg/mL
CCCCC#Cc1cn(S(=O)(=O)c2ccc(C)cc2)c(=O)[nH]c1=O,HEL,DAVIS,cytopathic effect,>16 µM
Nc1nc2c(ncn2COC2COP(=O)(O)OC2)c(=O)[nH]1,MRC-5,DAVIS,plaque count,6.1 µM
N#CC1=C(c2ccccc2)Nc2sccc2S1(=O)=O,HEL,AD169,cytopathic effect,>50 µg/mL
Nc1nc2c(ncn2C[C@@H]2CC[C@@H](P(=O)(O)O)O2)c(=O)[nH]1,WI-38,-,plaque count,0.1–1 µg/mL
Cc1oc(NC(=O)C(F)(F)F)c(S(=O)(=O)c2ccc(Cl)cc2)c1C,HEL,AD169,cytopathic effect,>5 µg/mL
Nc1nc2c(ncn2[C@@H]2C[C@H](CO)[C@H]2CO)c(=O)[nH]1,-,-,plaque count,1–10 µM
Nc1nc2c(ncn2COCC(O)CCP(=O)(O)O)c(=O)[nH]1,MRC-5,AD169,plaque count,549 µM
Nc1ncnc2c1ncn2C=C1CC1CO,-,VR6264 (ganciclovir-resistant),plaque count,0.6 µM
CCCCCCCCCCC#Cc1cn(S(=O)(=O)c2ccc(C)cc2)c(=O)[nH]c1=O,HEL,AD169,cytopathic effect,>80 µM
Nc1ncnc2c1ncn2[C@@H]1C[C@H](NC=O)[C@@H](O)[C@H]1O,HFF,-,-,>100 µg/mL
Nc1nc2c(ncn2COC(COP(=O)(O)O)COP(=O)(O)O)c(=O)[nH]1,MRC-5,AD169,plaque count,8 µM
CCOP(=O)(O)CCC(CO)OCn1cnc2c(=O)[nH]c(N)nc21,MRC-5,AD169,plaque count,27 µM
Nc1ncnc2c1ncn2CC[C@H](O)CCO,HEL,DAVIS,cytopathic effect,>400 µg/mL
NC1=NC2C(C=CN2CC(CO)CCO)C(=O)N1,-,-,plaque count,10–100 µM
Nc1ccn([C@@H]2C[C@@H](O)[C@H](CO)O2)c(=O)n1,FLOW 2002,WF1,plaque count,>100 µg/mL
Nc1nc2c(ncn2C[C@@H]2CC[C@H](P(=O)(O)O)O2)c(=O)[nH]1,WI-38,-,plaque count,0.5–1 µg/mL
COCC(CCP(=O)(O)O)OCn1cnc2c(=O)[nH]c(N)nc21,MRC-5,AD169,plaque count,479 µM
Cc1ccc(S(=O)(=O)n2cc(I)c(=O)[nH]c2=O)cc1,HEL,DAVIS,cytopathic effect,>80 µM
C=C1[C@H](O)[C@H](CO)O[C@@H]1n1ccc(N)nc1=O,FLOW 2002,WF1,plaque count,100 µg/mL
CCCCCCCCCCCCCCCCOCCCOP(=O)(O)OCC(CO)OCn1cnc2c(=O)[nH]c(N)nc21,MRC-5,AD169,plaque count,6.8 µM

Repeating the first 2 entries:

Nc1nc2c(ncn2C[C@H]2CC[C@@H](P(=O)(O)O)O2)c(=O)[nH]1 ; cell line: WI-38 ; read by: plaque count ; value: 50 µg/mL
CCCCCCCCC#Cc1c[nH]c(=O)[nH]c1=O ; cell line: HEL ; strain or isolate: DAVIS ; read by: cytopathic effect ; value: >400 µM